Measurements from patent US8753847.
Protein sequences can lack the tags named with them.

Molecular target: T1, PstI restriction endonuclease (Providencia stuartii) (UniProt P00640)
T1 sequence (looked up, limits assumed): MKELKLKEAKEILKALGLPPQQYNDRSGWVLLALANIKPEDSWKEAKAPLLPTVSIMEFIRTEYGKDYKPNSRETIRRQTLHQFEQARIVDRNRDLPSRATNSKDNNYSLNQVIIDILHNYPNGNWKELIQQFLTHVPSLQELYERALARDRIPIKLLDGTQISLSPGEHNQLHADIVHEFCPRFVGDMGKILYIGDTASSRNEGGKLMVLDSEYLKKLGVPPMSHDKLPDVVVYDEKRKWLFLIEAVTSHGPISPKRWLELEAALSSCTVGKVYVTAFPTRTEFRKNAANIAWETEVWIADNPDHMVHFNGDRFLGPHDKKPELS
Test: enzyme reaction in vitro
Settings: cleaves own template in droplets, 37 C, 2 h; at least 100-fold enrichment per round over GFP template; protein translated in vitro

CTGCAG (double strand) [PstI recognition site (two tandem copies at template end)]
activity on this sequence: active
